Pooled drug test results. Numbers come from NIAID ChemDB, via PubChem.

Shared fields: growth or infection tests; organism: Epstein-Barr virus; read by: hybridisation; read-out: EC50

Lines come from different laboratories, so protocols vary. ECn: concentration that inhibits the pathogen or its effect by n%.

SMILES	cells	value
CCCCCCCCCCCCCCCCCCOCCCOP1(=O)CO[C@@H](Cn2ccc(N)nc2=O)CO1	DAUDI	>1 µM
O=C(NCc1ccc(Cl)cc1)c1cn2c3c(cc(CN4CCOCC4)cc3c1=O)OC(c1cccnc1)C2	DAUDI	>43 µM
O[C@@H]1[C@H](O)[C@H](O)CO[C@H]1n1c(Br)nc2cc(Cl)c(Cl)cc21	DAUDI	10 µM
CCCCCCCC/C=C\CCCCCCCOCCCOP1(=O)CO[C@@H](Cn2ccc(N)nc2=O)CO1	DAUDI	0.4 µM
CC(C)Sc1nc(N)nc2c1ncn2/C=C1/C[C@@H]1CO	Akata	0.8 µM
COC(=O)C(C)NP(=O)(OC[C@@H]1C/C1=C\n1cc(C)c(=O)[nH]c1=O)Oc1ccccc1	H-1	>20 µM
CCCCCCSc1nc(N)nc2c1ncn2/C=C1/C[C@@H]1CO	Akata	14 µM
COc1cc(OC)c(C(=O)/C=C/c2ccc(O)cc2)c(OC)c1	Akata	18 µM
COC(=O)C(C)NP(=O)(OC[C@@H]1C/C1=C/n1cc(N)c(=O)[nH]c1=O)Oc1ccccc1	H-1	16 µM
Nc1nc2c(ncn2/C=C2/CC2(CO)CO)c(=O)[nH]1	H-1	>20 µM
CCCCCCCCSc1nc(N)nc2c1ncn2/C=C1/C[C@@H]1CO	Akata	>20 µM
Nc1nc2c(ncn2[C@H]2C[C@@H](O)[C@H](O)[C@@H]2O)c(=O)[nH]1	DAUDI	>50 µg/mL
Nc1nc2c(ncn2COCCO)c(=O)[nH]1	DAUDI	3.6 µM
Nc1cn(/C=C2/C[C@H]2CO)c(=O)[nH]c1=O	H-1	2.5 µM
Nc1nc2ncn(/C=C3\C(F)C3(CO)CO)c2c(=O)[nH]1	Akata	>100 µM
Nc1nc2c(ncn2/C=C2/CC2[C@H](O)CO)c(=O)[nH]1	Akata	>20 µM
CCCOc1nc(N)nc2c1ncn2/C=C1/C[C@@H]1CO	Akata	0.6 µM
Nc1nc2c(ncn2/C=C2/CC2[C@@H](O)CO)c(=O)[nH]1	Akata	>20 µM
CCCCCCCCCCCCCCCCOP1(=O)CO[C@@H](Cn2ccc(N)nc2=O)CO1	DAUDI	>1 µM

A second listing of 2 rows from above:

{"SMILES": "Nc1nc2c(ncn2[C@H]2C[C@@H](O)[C@H](O)[C@@H]2O)c(=O)[nH]1", "cells": "DAUDI", "value": ">50 µg/mL"}
{"SMILES": "Nc1nc2ncn(/C=C3\\C(F)C3(CO)CO)c2c(=O)[nH]1", "cells": "Akata", "value": ">100 µM"}